Primary screen of a compound library

Source: ChEMBL document CHEMBL3988442, “University of Dundee, Small-Polar-MMV Screening Library” (2021).

Mtb cholesterol medium: 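Whole-cell growth test on Mycobacterium tuberculosis, read after 4 days in a medium based on cholesterol and the lipid DPPC; the read-out is not stated. Tested at 50 µM. Direction is inferred from retests: higher values go with more growth inhibition. Of about 69,000 compounds tested this way, about 370 (0.54%) reached 50% or more in at least one test.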
Mtb glucose medium: 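Phenotypic screen: M. tuberculosis growth, glucose 7H9 medium, 3 days; the read-out is not stated. Concentration: 50 µM. Higher reads as more growth inhibition (inferred: compounds with an IC50 in retests scored well above the rest). Size under these conditions: about 69,000 compounds, about 760 of them at 50% or above in at least one test.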

The filed quantity is “Percent Effect” (%).
The record does not define 0% and 100%; most values in the screen are far below 50% and negative numbers occur (in some assays of this library far below -100).
Many other results are left out here, so strong results are more common than in the screen.
Two or more numbers in one place are separate tests of the same structure; such repeats can differ widely.

Result for Cc1nn(C)c(C)c1-c1cnc(C2CCCN(C)C2)cn1 (configuration not stated) was Mtb glucose medium: 20.43%.
Result for CCN(CC)S(=O)(=O)N1CCc2nc(C3CCNCC3)ncc2C1.Cl was Mtb glucose medium: 36.36%.
Result for COc1ccc(F)cc1CN1CCC(O)(CN2CCCCC2)C1 (configuration not stated) was Mtb glucose medium: 8.756%.
Result for Cn1nc(CN2CCCCC(N)C2)c2c(Cl)cccc21 (configuration not stated) was Mtb glucose medium: 29.26%.
Result for O=C(NCCCN1CCOCC1)c1ccc(-n2ccc3ccccc32)s1 was Mtb cholesterol medium: -20.98%; Mtb glucose medium: 38.77%.
Result for CN(Cc1cccs1)C(=O)c1ccc(=O)n(C)c1 was Mtb cholesterol medium: 8.769%; Mtb glucose medium: -6.188%.
Result for CC(C1CC1)N(C)Cc1nnc(-c2ccc(Br)s2)o1 (configuration not stated) was Mtb cholesterol medium: 44.4% and 43.76%; Mtb glucose medium: 32.84%.
Result for CN(C)CC(=O)N1CCC2(CCc3cc(-c4cccnc4)ccc32)CC1.O=C(O)C(F)(F)F.O=C(O)C(F)(F)F was Mtb cholesterol medium: 29.85%; Mtb glucose medium: 41.98% and 46.32%.
Result for Cc1cc(NCCCC(F)(F)F)n2nc(C)cc2n1 was Mtb cholesterol medium: 72.21%; Mtb glucose medium: 71.07%.
Result for Cc1cc(S(=O)(=O)NCC(C)(C)N)c(F)cc1F.Cl was Mtb glucose medium: 24.67%.
Result for c1coc(-c2nc3c(c(NCc4n[nH]c5c4CCC5)n2)CCNCC3)c1 was Mtb cholesterol medium: -1.229%; Mtb glucose medium: 19.28%.
Result for Cc1ccn(-c2ccc(NCc3cccnc3N3CCCCC3)nn2)n1 was Mtb cholesterol medium: -119.6% and 9.22%.
Result for CN(Cc1ccsc1)C(=O)c1ccc(S(=O)(=O)NC(C)(C)C)cc1 was Mtb glucose medium: 1.429%.
Result for COc1ccc(-n2cc(CNC(=O)c3ccccn3)nn2)cc1 was Mtb glucose medium: 65.28% and 1.168%.
Result for Cc1cc(NCCCNc2cccnc2)n2nc(C)c(C)c2n1 was Mtb cholesterol medium: 7.988%; Mtb glucose medium: -7.875%.
Result for CCc1ccc(OCCn2cccn2)cc1 was Mtb cholesterol medium: -9.629%; Mtb glucose medium: -17.46% and 21.66%.
Result for Cc1cc(Cl)ccc1C(=O)C1CCCN(Cc2cnc(N(C)C)s2)C1 (configuration not stated) was Mtb glucose medium: 47.2% and 50.71%.
Result for CSCCC1c2nc[nH]c2CCN1Cc1[nH]c2ccc(F)cc2c1C (configuration not stated) was Mtb glucose medium: 28.8% and 62.3%.
Result for Cn1cccc1C(O)CNC(=O)c1ccc(C(F)(F)F)cc1 (configuration not stated) was Mtb glucose medium: 9.228%.
Result for O=C(CCN1CCCC(CO)(CC2CC2)C1)NC1CCCCC1 (configuration not stated) was Mtb glucose medium: -7.645%.
Result for O=C(NC1CC2(CCN(CCO)CC2)Oc2ccccc21)c1csnn1 (configuration not stated) was Mtb glucose medium: -0.7027%.
Result for COC(=O)c1ccc(N2CCC(N(C)c3ccccc3)CC2)nn1 was Mtb cholesterol medium: 110%; Mtb glucose medium: 116.1%.
Result for CCNc1ncc2c(n1)CN(c1ccc(CC)cc1)C2=O was Mtb glucose medium: 133.1%.
Result for Cc1cc(C)cc(C(=O)NCc2ncnn2C)c1 was Mtb glucose medium: 37.94%.
Result for COc1ccc(-c2noc(CN3CCc4cncnc4C3)n2)cc1 was Mtb cholesterol medium: -1.186%.
Result for Cc1nnc(SCCC(=O)N(C)Cc2ccc(Cl)s2)[nH]1 was Mtb glucose medium: 40.91%.
Result for Cc1cc(Cc2ccccc2)cc(C2CCCNC2)n1 (configuration not stated) was Mtb glucose medium: 5.151%.

3 of the entries, repeated:

CN(C)CC(=O)N1CCC2(CCc3cc(-c4cccnc4)ccc32)CC1.O=C(O)C(F)(F)F.O=C(O)C(F)(F)F gave Mtb cholesterol medium: 29.85%; Mtb glucose medium: 41.98% and 46.32%.
Cc1ccn(-c2ccc(NCc3cccnc3N3CCCCC3)nn2)n1 gave Mtb cholesterol medium: -119.6% and 9.22%.
Cn1nc(CN2CCCCC(N)C2)c2c(Cl)cccc21 (configuration not stated) gave Mtb glucose medium: 29.26%.